Anti-infective test results gathered from many reports (values: NIAID ChemDB through PubChem).

All rows: growth or infection tests; species: Mycobacterium avium; measure: MIC

Conditions beyond the fields shown may differ between rows.

{"structure": "CCCCc1ccc(NC(=O)c2cc(Br)cc(Br)c2O)cc1", "strain": "MY330/88", "value": "62.5 µM"}
{"structure": "N/C(=N\\N=C\\c1nc2ccccc2o1)c1cnccn1", "value": ">16 µg/mL"}
{"structure": "N/C(=N\\N=C\\c1ccc(Cl)cc1)c1ccncc1", "strain": "INH resistant", "value": "32 µg/mL"}
{"structure": "C[C@@H]1CC[C@H]2C(C(=O)O)=CCC[C@@H]2[C@@]1(C)CCc1ccoc1", "value": ">100 µg/mL"}
{"structure": "Clc1ccc(CNc2ccc(N3CCOCC3)cc2)cc1", "strain": "103317", "value": ">16 µg/mL"}
{"structure": "N/C(=N/N=C/c1cccc(Br)c1)c1ccccn1", "value": "16 µg/mL"}
{"structure": "COc1ccc(CSc2ccnc(C(N)=S)c2)cc1", "strain": "CNCTC MY330/88", "value": "15.85 µM"}
{"structure": "N/C(=N/N=C/c1ccc(Br)cc1)c1ccccn1", "value": "128 µg/mL"}
{"structure": "CCCCCCCCCCN(CCCCCCCCCC)C(=O)NC(CCC(=O)O)(CCC(=O)O)CCC(=O)O", "strain": "VA14", "value": "18 µg/mL"}
{"structure": "N#Cc1cc(SCc2ccccc2Cl)ccn1", "strain": "CNCTC MY330/88", "value": "61.66 µM"}
{"structure": "COc1ccc(OC)c(/C=N/N=C(\\N)c2ccncc2)c1", "strain": "INH resistant", "value": "256 µg/mL"}
{"structure": "CCCCCCCOc1cccc(NC(=O)OCCN2CCCCC2)c1", "strain": "MY330/88", "value": "16 µM"}
{"structure": "CCc1cc(C(N)=S)ccn1", "value": "10 µg/mL"}
{"structure": "N#Cc1cc(SCc2cccc(Br)c2)ccn1", "strain": "CNCTC MY330/88", "value": "15.85 µM"}
{"structure": "CC(C)c1c(O)cc([C@H](N=C(N)N)C(=O)NCC(=O)O)cc1O", "strain": "Strain #2", "value": "0.39 µg/mL"}
{"structure": "O=C(Oc1ccc(Cl)cc1C(=O)Nc1cccc(F)c1)c1cnccn1", "strain": "330/88", "conditions": "21 d", "value": "16 µM"}
{"structure": "N/C(=N\\N=C\\c1nc2ccccc2o1)c1ccccn1", "value": ">16 µg/mL"}
{"structure": "CC(=O)Oc1c(Cl)cccc1C(=O)Nc1cccc(Cl)c1", "strain": "MY330/88", "value": "16 µg/mL"}
{"structure": "CCCCCCCC(CCCCCCC)NC(=O)NC(CCC(=O)O)(CCC(=O)O)CCC(=O)O", "strain": "VA14", "value": "108 µg/mL"}
{"structure": "CCCSc1cc(C(N)=S)cc(Cl)n1", "strain": "80/72", "value": "250 µM"}
{"structure": "COc1ccc2c(N/N=C/c3ccc4c(c3)OCO4)cc(C)nc2c1", "strain": "ATCC 25291", "value": "3.13 µg/mL"}
{"structure": "N/C(=N\\N=C\\c1nc2ccc([N+](=O)[O-])cc2o1)c1cnccn1", "value": ">16 µg/mL"}
{"structure": "CCOc1ccc(NC(=O)OCC[NH+]2CCCC2)cc1", "strain": "MY330/88", "value": ">1000 µM"}
{"structure": "O=C(Oc1cc(Cl)ccc1C(=O)Nc1cccc(Br)c1)c1cnccn1", "strain": "330/88", "conditions": "21 d", "value": "16 µM"}
{"structure": "CCCCCCCCCOc1ccccc1NC(=O)OCCN1CCCCC1", "strain": "MY330/88", "value": "32 µM"}
{"structure": "N/C(=N\\N=C\\c1ccc(Cl)c(Cl)c1)c1ccncc1", "strain": "INH resistant", "value": "256 µg/mL"}
{"structure": "CCCOc1cccc(NC(=O)OCCN(C)C)c1", "strain": "MY330/88", "value": "1000 µM"}
{"structure": "CC[C@H]1OC(=O)[C@H](C)C(=O)[C@H](C)[C@@H](O[C@@H]2O[C@H](C)C[C@H](N(C)C)[C@H]2O)[C@](C)(OC)C[C@@H](C)C(=O)[C@H](C)[C@H]2N(NCCCc3ccnc4ccccc34)C(=O)O[C@]12C", "strain": "Isolate 1295", "value": "10 µg/mL"}
{"structure": "CCSc1cc(C(N)=S)cc(Cl)n1", "strain": "80/72", "value": "250 µM"}
{"structure": "O=C(Nc1ccccc1CN1CCOCC1)c1ccc(Cl)cc1", "strain": "103317", "value": ">16 µg/mL"}
{"structure": "O=C(Nc1cccc(N2CCSCC2)c1)c1ccc(Cl)cc1", "strain": "103317", "value": ">16 µg/mL"}
{"structure": "CCCCCCCCc1ccc(NC(=O)c2cc(Cl)ccc2O)cc1", "strain": "MY330/88", "value": "8 µM"}
{"structure": "O=C(Oc1ccc(Cl)cc1C(=O)Nc1ccc(C(F)(F)F)cc1)c1cnccn1", "strain": "330/88", "conditions": "14 d", "value": "2 µM"}
{"structure": "CCCCc1ccc(NC(=O)c2cc(Cl)ccc2O)cc1", "strain": "MY330/88", "value": "8 µM"}
{"structure": "O=C(Nc1ccccc1Cn1ccnc1)c1ccc(-c2ccccc2)cc1", "strain": "103317", "value": ">16 µg/mL"}
{"structure": "N#Cc1ccc(/C=N/N=C(\\N)c2ccccn2)cc1", "value": "256 µg/mL"}
{"structure": "CC1=CCC[C@@H]2[C@@](C)(CC/C(C)=C/CO)[C@H](C)CC[C@@]12C", "value": ">100 µg/mL"}
{"structure": "c1ccc(CSc2ncnc3ccccc23)cc1", "strain": "CNCTC MY66/72", "value": "125 µM"}
{"structure": "c1ccc(-c2ccc(CNc3cccc(N4CCSCC4)c3)cc2)cc1", "strain": "103317", "value": ">16 µg/mL"}
{"structure": "CC(=O)Oc1cc(Cl)ccc1C(=O)Nc1ccc(Cl)cc1", "strain": "MY330/88", "value": "8 µg/mL"}
{"structure": "CN1CCN(c2ccccc2NCc2ccc(Cl)cc2)CC1", "strain": "103317", "value": ">16 µg/mL"}
{"structure": "CSc1cc(C(N)=S)cc(Br)n1", "strain": "80/72", "value": "500 µM"}
{"structure": "CCCCCCCCCCCN(CCCCCCCCCCC)C(=O)NC(CCC(=O)O)(CCC(=O)O)CCC(=O)O", "strain": "VA14", "value": "72 µg/mL"}
{"structure": "CC(=O)Oc1cc(Cl)ccc1C(=O)Nc1ccc(Br)cc1", "strain": "MY330/88", "value": "8 µg/mL"}
{"structure": "CCCCCCCCN(CCCCCCCC)C(=O)NC(CCC(=O)O)(CCC(=O)O)CCC(=O)O", "strain": "VA14", "value": "13.5 µg/mL"}
{"structure": "N/C(=N\\N=C\\c1cccc(Br)c1)c1ccncc1", "strain": "INH resistant", "value": "64 µg/mL"}
{"structure": "CCCCCCSc1ncnc2ccccc12", "strain": "CNCTC MY80/72", "value": "125 µM"}
{"structure": "C=C[C@](C)(O)CC[C@H]1C(=C)CC[C@H]2C(C)(C)[C@@H](O)CC[C@]12C", "value": ">100 µg/mL"}
{"structure": "N/C(=N\\N=C\\c1ccccc1)c1ccncc1", "strain": "INH resistant", "value": "128 µg/mL"}
{"structure": "CCCCOc1ccc2nccc(NN)c2c1", "strain": "ATCC 25291", "value": "25 µg/mL"}
{"structure": "CCCCCCCCCCCCCCCCSc1ncnc2ccccc12", "strain": "CNCTC MY66/72", "value": ">1000 µM"}
{"structure": "CCCCCCCN(CCCCCCC)C(=O)NC(CCC(=O)O)(CCC(=O)O)CCC(=O)O", "strain": "VA14", "value": "27 µg/mL"}
{"structure": "CC(=O)NC[C@H]1CN(c2ccc(N3CCS(=O)(=O)CC3)c(F)c2)C(=O)O1", "strain": "LPR", "value": "4 µg/mL"}
{"structure": "N/C(=N\\N=C\\c1cccc(F)c1)c1ccncc1", "strain": "INH resistant", "value": "64 µg/mL"}
{"structure": "O=C(/C=C/c1ccccc1)Nc1ccccc1Cn1ccnc1", "strain": "103317", "value": ">16 µg/mL"}
{"structure": "CCCCCCCCSc1cc(C(N)=S)cc(SCCCCCC)n1", "strain": "80/72", "value": "250 µM"}
{"structure": "N/C(=N/N=C/c1ccccc1Br)c1ccccn1", "value": "64 µg/mL"}
{"structure": "CCCc1ccc(NC(=O)c2ccc(Cl)cc2O)cc1", "strain": "MY330/88", "value": "8 µM"}
{"structure": "CC(C)Sc1ncnc2ccccc12", "strain": "CNCTC MY80/72", "value": "125 µM"}
{"structure": "O=C(Oc1cc(Cl)ccc1C(=O)Nc1ccc(Cl)cc1)c1cnccn1", "strain": "330/88", "conditions": "21 d", "value": "2 µM"}
{"structure": "CCCCCCCCCCCCC(CCCCCCCCCCCC)NC(=O)NC(CCC(=O)O)(CCC(=O)O)CCC(=O)O", "strain": "VA14", "value": "144 µg/mL"}
{"structure": "CCCCCCCCc1ccc(NC(=O)c2ccc(Cl)cc2O)cc1", "strain": "MY330/88", "value": "16 µM"}
{"structure": "CCCCCCCSc1cc(C(N)=O)cc(SCCCCCC)n1", "strain": "80/72", "value": ">1000 µM"}
{"structure": "NC(=S)c1cc(SCc2cc([N+](=O)[O-])cc([N+](=O)[O-])c2)ccn1", "strain": "CNCTC MY330/88", "value": "7.94 µM"}
{"structure": "CCCCc1ccc(NC(=O)c2cc(Br)ccc2O)cc1", "strain": "MY330/88", "value": "8 µM"}
{"structure": "N#Cc1cc(SCc2cccc([N+](=O)[O-])c2)ccn1", "strain": "CNCTC MY330/88", "value": "251 µM"}
{"structure": "CC(C)c1c(O)cc(C(N=C(N)N)C(=O)NCC(=O)O)cc1O", "strain": "Strain 1", "value": "6.25 µg/mL"}
{"structure": "CCCCSc1ncnc2ccccc12", "strain": "D 5/93", "value": "32 µM"}
{"structure": "N/C(=N\\N=C\\c1ccc(Br)cc1)c1ccncc1", "strain": "INH resistant", "value": "128 µg/mL"}
{"structure": "CCCCCCCSc1cc(C(N)=S)cc(Br)n1", "strain": "80/72", "value": "125 µM"}
{"structure": "CCCCCCc1ccc(NC(=O)c2cc(Cl)ccc2O)cc1", "strain": "MY330/88", "value": "16 µM"}
{"structure": "Nc1ccc(C(=O)O)c(O)c1", "strain": "330/88", "conditions": "21 d", "value": "125 µM"}
{"structure": "Cc1ccc(CSc2ccnc(C#N)c2)cc1", "strain": "CNCTC MY330/88", "value": "30.9 µM"}
{"structure": "CCCCCCCCCCCCCCCCCCCCCCC(=O)NC(C)(CCC(=O)O)CCC(=O)O", "strain": "VA14", "value": "36 µg/mL"}
{"structure": "N#Cc1cc(SCc2ccc(Cl)cc2)ccn1", "strain": "CNCTC MY330/88", "value": "15.85 µM"}
{"structure": "CN1CCN(Cc2ccccc2NC(=O)c2ccc(Cl)cc2)CC1", "strain": "103317", "value": ">16 µg/mL"}
{"structure": "CCCCOc1ccccc1NC(=O)OCC[NH+]1CCCC1", "strain": "MY330/88", "value": "250 µM"}
{"structure": "NC(=O)c1cnc(Cl)cn1", "strain": "49601", "value": "32 µg/mL"}
{"structure": "COc1cccc(/C=N/N=C(\\N)c2ccccn2)c1OC", "value": "256 µg/mL"}